Measurements reported in the supplement of paper PMC3578754.
Fold change is the IC50 on the isolate divided by the IC50 on a reference virus; 1 = unchanged, higher = more resistant. Changes are given against the subtype B consensus. No active / inactive call. The values were gathered from many studies (numbered anew) with different assays, which the source does not name. Most viruses are clinical isolates; some are laboratory strains or clones with known resistance changes. Isolates with mixed residues are left out; stretches that were not sequenced show no change. Round top values that many isolates share are read here as limits; other very high values and 0.1 may be limits too. The protease changes I3V and N37S, insertions and deletions cannot be read from the source.

Columns and labels:
Assay in all cases: fold change of IC50 against reference virus; higher = more resistant; Cell-culture drug susceptibility tests of virus bearing the protease of each isolate, gathered from many studies.
lopinavir = compound: Cc1cccc(C)c1OCC(=O)N[C@@H](Cc1ccccc1)[C@@H](O)C[C@H](Cc1ccccc1)NC(=O)[C@H](C(C)C)N1CCCNC1=O [lopinavir]
saquinavir = compound: CC(C)(C)NC(=O)[C@@H]1C[C@@H]2CCCC[C@@H]2CN1C[C@@H](O)[C@H](Cc1ccccc1)NC(=O)[C@H](CC(N)=O)NC(=O)c1ccc2ccccc2n1 [saquinavir]
indinavir = compound: CC(C)(C)NC(=O)[C@@H]1CN(Cc2cccnc2)CCN1C[C@@H](O)C[C@@H](Cc1ccccc1)C(=O)N[C@H]1c2ccccc2C[C@H]1O [indinavir]
atazanavir = compound: COC(=O)N[C@H](C(=O)N[C@@H](Cc1ccccc1)[C@@H](O)CN(Cc1ccc(-c2ccccn2)cc1)NC(=O)[C@@H](NC(=O)OC)C(C)(C)C)C(C)(C)C [atazanavir]
tipranavir = compound: CCC[C@@]1(CCc2ccccc2)CC(O)=C([C@H](CC)c2cccc(NS(=O)(=O)c3ccc(C(F)(F)F)cn3)c2)C(=O)O1 [tipranavir]
nelfinavir = compound: Cc1c(O)cccc1C(=O)N[C@@H](CSc1ccccc1)[C@H](O)CN1C[C@H]2CCCC[C@H]2C[C@H]1C(=O)NC(C)(C)C [nelfinavir]
ritonavir = compound: CC(C)c1nc(CN(C)C(=O)N[C@H](C(=O)N[C@@H](Cc2ccccc2)C[C@H](O)[C@H](Cc2ccccc2)NC(=O)OCc2cncs2)C(C)C)cs1 [ritonavir]

Test System	fold change of IC50 against reference virus (lopinavir)	fold change of IC50 against reference virus (saquinavir)	fold change of IC50 against reference virus (indinavir)	fold change of IC50 against reference virus (atazanavir)	fold change of IC50 against reference virus (tipranavir)	fold change of IC50 against reference virus (nelfinavir)	fold change of IC50 against reference virus (ritonavir)
HIV-1 isolate 1186 (protease changes: T12N K14R I15V G16E K20M M36I P39Q L63S I64V K70R, study 64)	1.3	1.4	1.2	1.1	1.1	1.3	1.4
HIV-1 isolate 1455 (protease changes: K14R R41K I64V Q92K, study 64)	0.7	0.6	0.6	0.7	0.6	0.9	0.7
HIV-1 isolate 1003 (protease changes: L10F I13V K20I L24I M36I M46I I54V D60E L63P I64V I66V A71T I72T G73C I84V T91S, study 64)	114	45	49	85	1.3	70	171
HIV-1 isolate 632 (protease changes: L10I I15V L19I K20R E35D M36I N37E R41K I54V Q58E D60N I62V L63P K70R A71V G73S V82A L90M I93L, study 64)	47	23	23	38	3.3	64	≥ 800
HIV-1 isolate 1342 (protease changes: L10I T12K L33F R41K K43T M46I I50L I54V K55R I62V L63P A71V I72L G73T V77I V82A L90M I93L C95F, study 15)	13	2.6	9.8	110	0.9	6.4	30
HIV-1 isolate 578 (protease changes: L10I V11I T12K I13V K20V V32I L33F E35G M36I N37D M46I I47V I54M R57K Q58E L63P I64V I66V A71V G73S I84V L89V L90M, study 64)	≥ 500	36	24	101	≥ 800	47	≥ 800
HIV-1 isolate 559 (protease changes: L19I L63S E65D I72V V77I, study 64)	0.5	0.5	0.5	0.6	0.6	0.6	0.6
HIV-1 isolate 439 (protease changes: I15V I62V L63P, study 64)	0.9	0.7	0.6	0.7	1.1	0.9	1
HIV-1 isolate 1310 (protease changes: I15V L19T K20R M36I R41K I62V K70R V82L, study 64)	0.8	1.1	0.7	1.2	2	0.9	4.3
HIV-1 isolate 394 (protease changes: L10I L19I K20R E35D M36I R41K M46I I54V L63P I64V G73T V82A L90M I93L C95F, study 64)	48	19	43	48	1.6	30	104
HIV-1 isolate 222 (protease changes: T12R I15V L19I R41K H69Y, study 64)	0.7	0.9	0.7	0.7	0.7	1.1	0.9
HIV-1 isolate 670 (protease changes: T12I G16E P39S L63T V77I, study 64)	0.5	0.6	0.6	0.7	0.7	0.6	0.5
HIV-1 isolate 1055 (protease changes: I13V N37T L63P, study 64)	1	1.3	1.2	0.8	0.9	1.4	1.3
HIV-1 isolate 1449 (protease changes: I13V I15V K20R M36I R41K H69K L89M I93L, study 64)	0.3	0.5	0.4	0.5	0.5	0.3	0.2
HIV-1 isolate 277 (protease changes: L10I L24I R41K M46I I54V I64V V77I V82A, study 64)	12	0.9	4.9	1.8	0.5	5.2	23
HIV-1 isolate 38 (protease changes: I13V K20T E35N M36I N37E I62V L63P K70R A71I T74S L90M I93L, study 64)	3.6	11	7	16	3.2	63	17
HIV-1 isolate 1305 (protease changes: L63T V77I, study 64)	0.5	0.6	0.6	0.7	0.5	1	0.6
HIV-1 isolate 1352 (protease changes: I3F L10I K20R V32I L33F E34K E35D M36I N37D R41K K43E K45R I54M D60K L63P A71V I72T V77I I84V L90M I93L, study 64)	51	27	29	184	28	79	≥ 800
HIV-1 isolate 37 (protease changes: L33I I62V L63T I64L A71V I72T I93L, study 64)	0.7	0.9	1.1	0.9	1.2	1.4	0.9

Test System	fold change of IC50 against reference virus (lopinavir)	fold change of IC50 against reference virus (saquinavir)	fold change of IC50 against reference virus (indinavir)	fold change of IC50 against reference virus (atazanavir)	fold change of IC50 against reference virus (tipranavir)	fold change of IC50 against reference virus (nelfinavir)	fold change of IC50 against reference virus (ritonavir)
HIV-1 isolate 799 (protease changes: L63P H69Q K70R V77I, study 64)	1	0.5	0.9	0.7	0.8	1.8	1.2
HIV-1 isolate 317 (protease changes: I62V L63S, study 64)	0.8	0.6	0.7	0.8	0.6	0.9	0.8
HIV-1 isolate 1327 (protease changes: I13V K14R I15V G16A E35D N37D L63P, study 64)	0.6	0.7	0.6	0.7	0.8	0.7	0.7
HIV-1 isolate 1631 (protease changes: L10I I13V L19V K20T M46I I54V I62V L63P A71V I72L G73S V82T L90M, study 64)	39	18	30	24	3.2	71	61
HIV-1 isolate 1191 (protease changes: I13V N37T L63E I64V E65D V77I, study 64)	0.4	0.6	0.7	0.6	0.5	0.9	0.7
HIV-1 isolate 1366 (protease changes: L10I L24I L33F E35D M36I R41P K45R M46I I50L L63P I64V H69Y A71V V82S I93L, study 15)	7.5	0.9	6.7	208	0.6	6.6	36
HIV-1 isolate 1603 (protease changes: L10I K20R E35D M36I N37D R41K M46I I54V I62V L63P V82A L90M I93L C95F, study 64)	76	24	104	51	3.3	191	≥ 800
HIV-1 isolate 1613 (protease changes: L10V I13V K20R V32I E35D M36I K43T M46I I47V F53L I62V L63P A71L I72V V77Q V82C I84V I93L, study 64)	58	32	4.4	59	≥ 800	19	≥ 800
HIV-1 isolate 1367 (protease changes: L63P I64L, study 64)	1	0.9	0.6	1	0.8	0.9	0.4
HIV-1 isolate 388 (protease changes: L10F I13V L23I L33F I54V R57K Q58E D60E L63P A71V L76V V82A I93L, study 15)	≥ 500	6.4	42	5.6	2.1	23	500
HIV-1 isolate 724 (protease changes: L10F I13V V32I L33F M36I K45I I54V R57G A71V V82L I84V, study 76)	59	3	90	134	69	22	164
HIV-1 isolate 1375 (protease changes: T12A I13V L63P, study 64)	1.3	1.1	1.6	1.1	1.4	1.4	0.8
HIV-1 isolate 891 (protease changes: L63P I64L, study 64)	1	1.1	1	0.6	1.2	1.4	1
HIV-1 isolate 1607 (protease changes: T12P K14R L63P G68E A71T, study 64)	1.1	1.6	1.1	0.8	0.9	0.9	1
HIV-1 isolate 814 (protease changes: I13V M36I R41K Q61K, study 15)	0.7	1	0.9	0.9	1.3	1.3	1.1
HIV-1 isolate 745 (protease changes: L10V M46I I62V I64V K70R T74A V77I L90M I93L, study 64)	1	1.1	2.3	1.2	0.6	3.6	1.6
HIV-1 isolate 134 (protease changes: L10V I13V M46I L63P A71T V77I L90M, study 64)	3.8	4.4	2.5	3	1.8	7.9	8.4
HIV-1 isolate 172 (protease changes: I13V R41K L63P H69R I93L, study 64)	0.7	0.6	1.3	1.1	1.1	1.7	1.1
